Anti-infective test results gathered from many reports (values: NIAID ChemDB through PubChem).

All rows: whole-cell or culture tests; species: HIV-1; cell line: MT-4; read-out: fold resistance

An empty or dashed field is not shown. Fold resistance: result on the changed form divided by that on wild type. Lines come from different laboratories, so protocols vary.

C=C(c1cc(C)cc(C)c1)c1c(CC)c(=O)[nH]c(=O)n1COCC ; strain: IIIB ; mutations: RT-K103N Y181C ; method: cytopathic effect / MTT ; value: 828.6
Cc1cc(OCCCN2CCOCC2)ccc1NC(=O)COc1ccc(Cl)cc1C(=O)c1cccs1 ; strain: Nevirapine-resistant (RT Y181C) ; mutations: RT-Y181C ; method: cytopathic effect / propidium iodide ; value: ~1
CCc1c(C)[nH]c(=O)c(CC)c1Oc1cc(C)cc(C)c1 ; mutations: RT-L100I ; method: cytopathic effect / MTT ; value: 4
CCC(C)[C@@H](C(=O)N[C@@H](Cc1ccccc1)[C@H](O)CN(CC(C)C)S(=O)(=O)c1ccc(/C=N/O)cc1)N1CCN(Cc2ccncc2)C1=O ; strain: A17 (LPV-resistant) ; mutations: PR-L10F V32I M46I I47V Q68E I84V ; method: cytopathic effect / MTT ; value: 1.3
N#Cc1cc(Cl)cc(Oc2c(Br)ccc(CC(=O)Nc3ccc(S(N)(=O)=O)cc3Cl)c2F)c1 ; mutations: V106A ; value: 1
Cc1cc(C)c(Oc2nc(Nc3ccc(C#N)cc3)c(=O)n(C)c2C)c(C)c1 ; mutations: RT-K103N ; method: cytopathic effect / MTT ; value: 31.6
CCc1c(OC2CCCC2)c2cc(Cl)ccc2[nH]c1=O ; strain: Nevirapine-resistant (RT Y181C) ; mutations: RT-Y181C ; value: 15.6
Cc1nc(N)nc(C)c1OCC(=O)N[C@@H](Cc1ccccc1)[C@H](O)CN(CC(C)C)S(=O)(=O)c1ccc2nc(N)oc2c1 ; strain: LAI ; mutations: PR-L010F M046I M071V I084V ; method: cytopathic effect / MTT ; value: 62
Cc1cc(C#N)cc(C(=O)c2cc(Cl)ccc2OCC(=O)Nc2cnc(S(N)(=O)=O)cc2C)c1 ; strain: Nevirapine-resistant (RT Y181C) ; mutations: RT-Y181C ; method: cytopathic effect / propidium iodide ; value: ~1
CC(C)CN(C[C@@H](O)[C@H](Cc1ccccc1)NC(=O)O[C@H]1CO[C@H]2OCC[C@H]21)S(=O)(=O)c1ccc(-c2csc(N)n2)cc1 ; mutations: PR-L010F M046I M071V I084V ; method: cytopathic effect / MTT ; value: 91
CCCc1c(OC2CCCC2)c2cc(Cl)ccc2[nH]c1=O ; strain: Nevirapine-resistant (RT Y181C) ; mutations: RT-Y181C ; value: 17
Cc1cc(S(N)(=O)=O)ccc1NC(=O)COc1ccc(Cl)cc1C(=O)c1cc(Cl)cc(C#N)c1 ; strain: Nevirapine-resistant (RT Y181C) ; mutations: RT-Y181C ; method: cytopathic effect / propidium iodide ; value: ~1
Cc1ccc(C2CC2)c(-c2cc(F)c3c(c2C)CCCO3)c1[C@H](OC1CC1)C(=O)O ; strain: NL4-3 ; mutations: A128T ; method: p24 / luminescence ; value: 4
CC(C)CN(C[C@@H](O)[C@H](Cc1ccccc1)NC(=O)OCc1cncs1)S(=O)(=O)c1ccc2nc(N)oc2c1 ; strain: LAI ; mutations: PR-L010F M046I M071V I084V ; method: cytopathic effect / MTT ; value: 14
CCc1c(C)[nH]c(=O)c(C(C)C)c1Oc1cc(C)cc(C)c1 ; mutations: RT-K103N ; method: cytopathic effect / MTT ; value: 2
CCc1c(CC2CCCc3ccccc32)n(COCC=C(C)C)c(=O)[nH]c1=O ; strain: N119 RT-Y181C NNRTI-resistant ; mutations: RT-Y181C ; method: cytopathic effect / MTT ; value: >25
CNc1nc2ccc(S(=O)(=O)N(CC(C)C)C[C@@H](O)[C@H](Cc3ccccc3)NC(=O)O[C@H]3CCOC3)cc2o1 ; strain: LAI ; mutations: PR-L010F M046I M071V I084V ; method: cytopathic effect / MTT ; value: 115
O=C(COc1ccc(Cl)cc1C(=O)c1ccccc1)Nc1ccc2cn[nH]c2c1 ; strain: Nevirapine-resistant (RT Y181C) ; mutations: RT-Y181C ; method: cytopathic effect / propidium iodide ; value: ~10
CC1(C)Oc2ccc3ccc(=O)oc3c2[C@@H](OC(=O)C23CCC(C)(C(=O)O2)C3(C)C)[C@H]1OC(=O)C12CCC(C)(C(=O)O1)C2(C)C ; strain: RTMDR1 ; mutations: RT-M41L L74V V106A T215Y ; method: p24 ; value: 77
CCc1c(C)[nH]c(=O)c(C2CC2)c1Oc1cc(C)cc(C)c1 ; mutations: RT-K103N ; method: cytopathic effect / MTT ; value: 32
CNc1nc(-c2ccc(S(=O)(=O)N(CC(C)C)C[C@@H](O)[C@H](Cc3ccccc3)NC(=O)O[C@H]3CO[C@H]4OCC[C@H]43)cc2)cs1 ; mutations: PR-L010F M046I M071V I084V ; method: cytopathic effect / MTT ; value: 42
CC(C)[C@H](NC(=O)OCc1ccccn1)C(=O)N[C@@H](Cc1ccccc1)[C@@H](O)C[C@H](Cc1ccccc1)NC(=O)OCc1cccnc1 ; strain: NL4-3 ; mutations: PR-L10R M46I L63P ; method: p24 ; value: 1
CC(C)=CCN1Cc2cc(Cl)cc3[nH]c(=O)n(c23)C[C@@H]1C ; strain: IIIB ; mutations: RT-Y181C ; method: cytopathic effect / XTT ; value: 496
C#CCOCn1c(C(=C)c2cc(C)cc(C)c2)c(CC)c(=O)[nH]c1=O ; strain: IIIB ; mutations: RT-K103N Y181C ; method: cytopathic effect / MTT ; value: 767
Cc1cncc(C)c1OCC(=O)N[C@@H](Cc1ccccc1)[C@H](O)CN(CC(C)C)S(=O)(=O)c1ccc2nc(N)oc2c1 ; strain: LAI ; mutations: PR-L010F M046I M071V I084V ; method: cytopathic effect / MTT ; value: 13
CCC(C)[C@@H](C(=O)N[C@@H](Cc1ccccc1)[C@H](O)CN(CC(C)C)S(=O)(=O)c1ccc(/C=N/O)cc1)N1CC(=O)N(Cc2cccnc2)C1=O ; strain: A17 (LPV-resistant) ; mutations: PR-L10F V32I M46I I47V Q68E I84V ; method: cytopathic effect / MTT ; value: 0.25
Cc1cc(C#N)cc(C)c1Oc1nc(Nc2ccc(C#N)cc2)c(=O)n(C)c1C ; mutations: RT-K103N ; method: cytopathic effect / MTT ; value: 1
C=Cc1c(Oc2cc(C)cc(C)c2)c(CC)c(C)[nH]c1=O ; mutations: RT-Y188L ; method: cytopathic effect / MTT ; value: 6
CCC(C)[C@@H](C(=O)N[C@@H](Cc1ccccc1)[C@H](O)CN(CC(C)C)S(=O)(=O)c1ccc(/C=N/O)cc1)N1CCN(Cc2ccc(OC)nc2)C1=O ; strain: A17 (LPV-resistant) ; mutations: PR-L10F V32I M46I I47V Q68E I84V ; method: cytopathic effect / MTT ; value: 1
Cc1cc(C)cc(S(=O)(=O)c2c(C(=O)NNCCO)[nH]c3ccc(Cl)cc23)c1 ; mutations: RT-K103N Y181C ; method: cytopathic effect / MTT ; value: 10000
CCC(C)[C@@H](C(=O)N[C@@H](Cc1ccccc1)[C@H](O)CN(CC(C)C)S(=O)(=O)c1ccc(/C=N/O)cc1)N1CC(=O)N(Cc2ccncc2)C1=O ; strain: A17 (LPV-resistant) ; mutations: PR-L10F V32I M46I I47V Q68E I84V ; method: cytopathic effect / MTT ; value: 0.2
O=C1Nc2ccc(Cl)c3c2[C@](C(F)(F)F)(C=C(c2cccnc2)O3)N1 ; mutations: RT-K103N ; method: p24 ; value: 16.52
CCCc1c(OC2CCCC2)c2cc(Br)ccc2[nH]c1=O ; strain: Nevirapine-resistant (RT Y181C) ; mutations: RT-Y181C ; value: 17.9
Cc1c(C(=O)N[C@@H](Cc2ccccc2)[C@H](O)CN(CC(C)C)S(=O)(=O)c2ccc3nc(N)oc3c2)ccc([N+](=O)[O-])c1O ; strain: LAI ; mutations: PR-L010F M046I M071V I084V ; method: cytopathic effect / MTT ; value: 6.6
Cc1cn([C@H]2C=C[C@@H](CO)O2)c(=O)[nH]c1=O ; strain: XM-T69SSS ; mutations: RT-T69SSS L210W T215Y ; method: p24 ; value: 9
O=C1Nc2ccc(Cl)c(O)c2[C@@](C#CC2CC2)(C(F)(F)F)N1 ; mutations: RT-K103N ; method: p24 ; value: 7.78
Cc1nc(-c2ccc(S(=O)(=O)N(CC(C)C)C[C@@H](O)[C@H](Cc3ccccc3)NC(=O)O[C@H]3CO[C@H]4OCC[C@H]43)cc2)co1 ; mutations: PR-L010F M046I M071V I084V ; method: cytopathic effect / MTT ; value: 42
Cc1ncnc(C)c1OCC(=O)N[C@@H](Cc1ccccc1)[C@H](O)CN(CC(C)C)S(=O)(=O)c1ccc2nc(N)oc2c1 ; strain: LAI ; mutations: PR-L010F M046I M071V I084V ; method: cytopathic effect / MTT ; value: 170
Cc1cn([C@H]2C=C[C@@H](CO)O2)c(=O)[nH]c1=O ; strain: HXB2 ; mutations: RT-K65R/T215Y ; method: cytopathic effect / MTT ; value: 0.9
CCC(C)[C@@H](C(=O)N[C@@H](Cc1ccccc1)[C@H](O)CN(CC1CCCC1)S(=O)(=O)c1ccc(/C=N/O)cc1)N1CCN(Cc2cccc(COC)n2)C1=O ; strain: A17 (LPV-resistant) ; mutations: PR-L10F V32I M46I I47V Q68E I84V ; method: cytopathic effect / MTT ; value: 0.5
Cc1ccc(C2CC2)c(-c2ccc3c(c2)CCCO3)c1[C@H](OC(C)(C)C)C(=O)O ; strain: NL4-3 ; mutations: PI-resistant ARP-11801 (L10F/G16A/L33F/K43T/L63P/A71V/V82A) ; method: luminescence ; value: 1
CCC(C)C#COc1c(C(C)C)c(=O)[nH]c2ccc(F)cc12 ; strain: RT-K103N V108I ; mutations: RT-103N V108I ; value: 66.7
CCC(C)[C@@H](C(=O)N[C@@H](Cc1ccccc1)[C@H](O)CN(CC1CCCC1)S(=O)(=O)c1ccc(/C=N/O)cc1)N1CCN(Cc2cccc(C)n2)C1=O ; strain: A17 (LPV-resistant) ; mutations: PR-L10F V32I M46I I47V Q68E I84V ; method: cytopathic effect / MTT ; value: 0.8
CCCc1c(OCC2CCCCC2)c2cc(Cl)ccc2[nH]c1=O ; strain: Nevirapine-resistant (RT Y181C) ; mutations: RT-Y181C ; value: 0.626
COc1c(Cl)ccc2c1[C@@](C#Cc1cccnc1)(C(F)(F)F)NC(=O)N2 ; mutations: RT-K103N ; method: p24 ; value: 20.7
COc1cc2c(cc1Cc1cccc(Cl)c1F)c(=O)c(C(=O)O)cn2[C@H](CO)C(C)C ; strain: NL4-3 ; mutations: L102F ; method: luminescence ; value: 1
Cc1cc(C#N)cc(C)c1OCC(=O)N[C@@H](Cc1ccccc1)[C@H](O)CN(CC(C)C)S(=O)(=O)c1ccc2nc(N)oc2c1 ; strain: LAI ; mutations: PR-L010F M046I M071V I084V ; method: cytopathic effect / MTT ; value: 35
CC(C)CN(C[C@@H](O)[C@H](Cc1ccccc1)NC(=O)[C@H](C(C)C)N1CC(=O)N(Cc2ccccc2)C1=O)S(=O)(=O)c1ccc(/C=N/O)cc1 ; strain: A17 (LPV-resistant) ; mutations: PR-L10F V32I M46I I47V Q68E I84V ; method: cytopathic effect / MTT ; value: 16
C=C(C)COCn1c(CC2CCCc3ccccc32)c(CC)c(=O)[nH]c1=O ; strain: N119 RT-Y181C NNRTI-resistant ; mutations: RT-Y181C ; method: cytopathic effect / MTT ; value: >33.3
C=C(c1cc(C)cc(C)c1)c1c(CC)c(=O)[nH]c(=O)n1COC/C=C/c1ccccc1 ; strain: IIIB ; mutations: RT-Y181C ; method: cytopathic effect / MTT ; value: 3330
CCCc1c(OC2CCCC2)c2ccccc2[nH]c1=O ; strain: Nevirapine-resistant (RT Y181C) ; mutations: RT-Y181C ; value: 12
CC(C)CN(C[C@@H](O)[C@H](Cc1ccccc1)NC(=O)O[C@H]1CO[C@H]2OCC[C@H]21)S(=O)(=O)c1ccc(-c2csc(NCCCN(C)C)n2)cc1 ; mutations: PR-L010F M046I M071V I084V ; method: cytopathic effect / MTT ; value: 79
O=C1Nc2ccc(Cl)c3c2[C@](C(F)(F)F)(C=C(c2ccccc2)O3)N1 ; mutations: RT-L100I K103N ; method: p24 ; value: 202.8
CCCc1nc(-c2ccc(S(=O)(=O)N(CC(C)C)C[C@@H](O)[C@H](Cc3ccccc3)NC(=O)O[C@H]3CO[C@H]4OCC[C@H]43)cc2)co1 ; mutations: PR-L010F M046I M071V I084V ; method: cytopathic effect / MTT ; value: 219
Nc1nc(NC2CC2)c2ncn([C@H]3C=C[C@@H](CO)C3)c2n1 ; strain: XM-ABC-resistant ; mutations: RT-K65R L74V M184V Y115F ; method: p24 ; value: 53
COc1cccc(-c2nc(-c3ccc(S(=O)(=O)N(CC(C)C)C[C@@H](O)[C@H](Cc4ccccc4)NC(=O)O[C@H]4CO[C@H]5OCC[C@H]54)cc3)co2)c1 ; mutations: PR-L010F M046I M071V I084V ; method: cytopathic effect / MTT ; value: 77
CCc1c(C)[nH]c(=O)c(SC)c1Oc1cc(C)cc(C)c1 ; mutations: RT-L100I K103N ; method: cytopathic effect / MTT ; value: 32
CCOCn1c(Cc2ccccc2)c(C(C)C)c(=O)[nH]c1=O ; strain: IIIB ; mutations: RT-K103N Y181C ; method: cytopathic effect / MTT ; value: 5000

Repeating the final 8 entries:

compound	strain	mutations	method	value
CCCc1c(OC2CCCC2)c2ccccc2[nH]c1=O	Nevirapine-resistant (RT Y181C)	RT-Y181C	-	12
CC(C)CN(C[C@@H](O)[C@H](Cc1ccccc1)NC(=O)O[C@H]1CO[C@H]2OCC[C@H]21)S(=O)(=O)c1ccc(-c2csc(NCCCN(C)C)n2)cc1	-	PR-L010F M046I M071V I084V	cytopathic effect / MTT	79
O=C1Nc2ccc(Cl)c3c2[C@](C(F)(F)F)(C=C(c2ccccc2)O3)N1	-	RT-L100I K103N	p24	202.8
CCCc1nc(-c2ccc(S(=O)(=O)N(CC(C)C)C[C@@H](O)[C@H](Cc3ccccc3)NC(=O)O[C@H]3CO[C@H]4OCC[C@H]43)cc2)co1	-	PR-L010F M046I M071V I084V	cytopathic effect / MTT	219
Nc1nc(NC2CC2)c2ncn([C@H]3C=C[C@@H](CO)C3)c2n1	XM-ABC-resistant	RT-K65R L74V M184V Y115F	p24	53
COc1cccc(-c2nc(-c3ccc(S(=O)(=O)N(CC(C)C)C[C@@H](O)[C@H](Cc4ccccc4)NC(=O)O[C@H]4CO[C@H]5OCC[C@H]54)cc3)co2)c1	-	PR-L010F M046I M071V I084V	cytopathic effect / MTT	77
CCc1c(C)[nH]c(=O)c(SC)c1Oc1cc(C)cc(C)c1	-	RT-L100I K103N	cytopathic effect / MTT	32
CCOCn1c(Cc2ccccc2)c(C(C)C)c(=O)[nH]c1=O	IIIB	RT-K103N Y181C	cytopathic effect / MTT	5000